Measured values from ChEMBL document CHEMBL3351613, “Indolylarylsulfones carrying a heterocyclic tail as very potent and broad spectrum HIV-1 non-nucleoside reverse transcriptase inhibitors” (J Med Chem, 2014).

Legend:
[1] = target: Human immunodeficiency virus type 1 reverse transcriptase (Human immunodeficiency virus 1, UniProt Q72547)
[2] = target: Human immunodeficiency virus type 1 reverse transcriptase (Human immunodeficiency virus 1, UniProt Q72547, Y181I)

Cc1cc(C#N)cc(C)c1Oc1nc(Nc2ccc(C#N)cc2)nc(N)c1Br [ETRAVIRINE]
IC50 [1]: 164 nM | IC50 [2]: 164 nM
